Measurements reported in the supplement of paper PMC9931576.
Human monoclonal antibodies against the spike receptor-binding domain (heavy:light variable regions). IC50 against pseudoviruses bearing the spike of naturally observed variants; lower = stronger; >10 µg/ml means not reached at the top dose. No active / inactive call. The stated detection limit is 0.0005 µg/ml; values near or below 0.001 µg/ml lie at the floor of the assay.

B1: BD56-1450 (protein)
chain 1: QLQLQESGPGLVKPSETLSLTCTVSGGSVSSRSYYWGWIRQPPGKGLEWIGSFSFSGSTYFNPSLKSRVTIPVDTSKNQFSLRLTSVTAADTAVYYCARVGGEGDYFDYWGQGSLVTVSS
chain 2: DIQMTQSPSTLPASVGDRVTITCRASQSISRWLAWYQQKPGKAPKLLIYMASNLESGVPSRFSGSGSGTEFTLTISSLQPDDFATYYCQQYNTYRTFGQGTKVEIK
B2: BD56-1477 (protein)
chain 1: QVQLQESGPGLVRPSETLSLTCSVSGGSISHYYWNWIRQSPGKGLEWIGYVFYSGSTNYNPSLRSRVTILVDTSKNQFSLKLRSVTAADTALYYCARDRGHRSGWPDALDIWGQGTMVTVSS
chain 2: DIQMTQSPPSLSASVGDRVTITCQASQDITNYLNWYQQRPGKAPKLLIYDASNLETGVPSRFSGRGSGTDFTFTISSLQPEDIATYYCQQYDNIPWTFGQGTKVEIK
B3: BD56-1442 (protein)
chain 1: QVQLVESGGGLVKPGGSLRLSCTASGFTFSDYYMSWIRQAPGKGLEWVSYIDTRGRNIYYGDSVKGRFAMSRDNARNSLSLQMNSLRAEDTAVYYCARARVISEWFDEGYYMDVWGKGTSVTVYS
chain 2: EIVLTQSPGTLSSSPGERATLSCRASQSVSSTFLAWYQQKPGQAPRLLIYGASSRATGIPDRFSGSGSGTDFSLTISRLEPEDFAVYYCQQSDSSLAITFGQGTRLEIK
B4: BD56-1444 (protein)
chain 1: QVQLVESGGGVVQPGRSLRLSCAASGFTFNTYAMHWVRQAPVAGLEWVATILSDGTGKFYADSVKGRFTISRDNSKNTLYLQMNSLRGEDTAVYYCARDSSSAHWLVSWFDPWGQGTLVTVSS
chain 2: DIQMTQSPSSLSASVGDRVTITCRASQSINNYLNWYQQKPGKAPTLLIYVASNLQSGVPSRFSGSGSGTDFTLTISSLQPEDFATYYCQQSYSTPPWTFGQGTKLEIK
B5: BD56-1438 (protein)
chain 1: EVQLVESGGGLVQPGGSLRLSCAASGFTFSRYDMHWVRQAAGKGLEWVSLIGTAGDTYYPGSVKGRFTISRENAKNSLYLQMNSLTVGDTAVYYCARSAEIFGVEDLGVYGMDVWGQGTTVTVSS
chain 2: DIQMTQSPSSLSASVGDTVTITCRASQSVTRFLNWYQQRPGKAPKLLISAASILQSGVPSRFSGSGSGTDFTLTISSLQPEDFATYYCQQSYSTPSWTFGQGTELEIK
B6: BD56-1482 (protein)
chain 1: EVQLVESGGGLVQPGGSLRLSCVASGITVSSNYMTWVRQAPGKGLEWVSVIYPGGSTFYADSLQGRFTVSRHDSKNTLFLQMDSLRPDDTGVYFCARDLVVSGMDVWGQGTTVTVAS
chain 2: DIQLTQSPSFLSASVGDRVTITCRASQGISSYLAWYQQKPGKAPKLLIYAASTLQSGVPSRFSGSGSGTEFTLTVSSLQPEDFATYYCQQLDSSPPYTFGQGTKLEIK

Tests used:
Test in all cases: pseudovirus neutralization IC50; higher = weaker neutralization
[1] = molecular target: SARS-CoV-2 Omicron BA.1 spike pseudovirus
Method: (§1)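 Single-round VSV luciferase pseudovirus mixed with antibody dilutions for 1 h and put on Huh-7 cells for about a day; IC50 from the dose curve.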

[2] = molecular target: SARS-CoV-2 Omicron BA.2 spike pseudovirus
Method: as §1

[3] = molecular target: SARS-CoV-2 Omicron BA.2.75 spike pseudovirus
Method: as §1

[4] = molecular target: SARS-CoV-2 Omicron BA.5 spike pseudovirus
Method: as §1

[5] = molecular target: SARS-CoV-2 Omicron BQ.1.1 spike pseudovirus
Method: as §1

[6] = molecular target: SARS-CoV-2 Omicron XBB spike pseudovirus
Method: as §1

[7] = molecular target: SARS-CoV-2 early D614G spike pseudovirus
Method: as §1

Binder | pseudovirus neutralization IC50 [1] | pseudovirus neutralization IC50 [2] | pseudovirus neutralization IC50 [3] | pseudovirus neutralization IC50 [4] | pseudovirus neutralization IC50 [5] | pseudovirus neutralization IC50 [6] | pseudovirus neutralization IC50 [7]
B1 | > 10 µg/mL | > 10 µg/mL | > 10 µg/mL | > 10 µg/mL | > 10 µg/mL | > 10 µg/mL | 0.172 µg/mL
B2 | 0.262 µg/mL | 0.435 µg/mL | 0.474 µg/mL | > 10 µg/mL | > 10 µg/mL | 1.38 µg/mL | 0.0216 µg/mL
B3 | > 10 µg/mL | > 10 µg/mL | > 10 µg/mL | > 10 µg/mL | > 10 µg/mL | > 10 µg/mL | > 10 µg/mL
B4 | > 10 µg/mL | > 10 µg/mL | > 10 µg/mL | > 10 µg/mL | > 10 µg/mL | > 10 µg/mL | 2.29 µg/mL
B5 | > 10 µg/mL | > 10 µg/mL | > 10 µg/mL | > 10 µg/mL | > 10 µg/mL | > 10 µg/mL | > 10 µg/mL
B6 | 0.0681 µg/mL | 0.0767 µg/mL | > 10 µg/mL | 0.132 µg/mL | > 10 µg/mL | > 10 µg/mL | 0.00817 µg/mL
